Measurements reported in PubChem BioAssay AID1259414 (Drosophila RNAi Screening Center, 2018)

- Test: 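Fly genes that alter Wolbachia amount inside host cells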 (primary screen)
- Cells: Drosophila JW18 cells infected with Wolbachia
- Knock-down reagent: long dsRNA against Drosophila genes, 0.25 µg dsRNA per well of a 384-well plate
- Time to read-out: 5 days
- Challenge: cells persistently infected with Wolbachia before knock-down; no added drug
- Read-out: 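Automated imaging of bacterial rRNA staining divided by host cell count, reported as plate-normalised robust z-score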
- Direction: Wolbachia per cell robust z: higher = more Wolbachia per host cell than the plate typical
- Rule for the call: 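Hit when robust z is 1.5 or more, or -1.5 or less, in at least two of three replicates; excludes dsRNAs with several or no targets, genes not expressed in JW18 and well A1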
The deposit covers about 24,000 reagents; shown is an unselected part of those with a known target gene and a result. Over the whole deposit, about 1,210 (5%) were called active. 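Inactive calls also include excluded dsRNAs with several or no targets, genes unexpressed in JW18, and well A1, regardless of score.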 Entries without a mark were called inactive.

MAN1 [DRSC04342] showed Wolbachia per cell robust z, rep 1 = -7.14 (active); Wolbachia per cell robust z, rep 2 = 0.19; Wolbachia per cell robust z, rep 3 = -5.26. Against CG6262 [DRSC23105] the deposit lists Wolbachia per cell robust z, rep 1 = -0.0634; Wolbachia per cell robust z, rep 2 = 0.0456; Wolbachia per cell robust z, rep 3 = -0.221. Knock-down of CG6262 [DRSC27998] resulted in: Wolbachia per cell robust z, rep 1 = -5.47; Wolbachia per cell robust z, rep 2 = -0.337; Wolbachia per cell robust z, rep 3 = -0.176. CG7702 [DRSC16293] gave Wolbachia per cell robust z, rep 1 = 0.162; Wolbachia per cell robust z, rep 2 = -0.000619; Wolbachia per cell robust z, rep 3 = 2.04. CG7702 [DRSC27592] showed Wolbachia per cell robust z, rep 1 = 0.44; Wolbachia per cell robust z, rep 2 = -0.0309; Wolbachia per cell robust z, rep 3 = -1.24. With knock-down of pes [DRSC03033], the screen gave Wolbachia per cell robust z, rep 1 = -3.09; Wolbachia per cell robust z, rep 2 = 0.674; Wolbachia per cell robust z, rep 3 = 1.08.

For pes [DRSC25954] the deposit lists Wolbachia per cell robust z, rep 1 = 0.769; Wolbachia per cell robust z, rep 2 = 0.464; Wolbachia per cell robust z, rep 3 = 0.911. Silencing of aus [DRSC13471] came out at: Wolbachia per cell robust z, rep 1 = -4.3; Wolbachia per cell robust z, rep 2 = 0.117; Wolbachia per cell robust z, rep 3 = 0.693. For aus [DRSC13473], the entry reads Wolbachia per cell robust z, rep 1 = 0.24; Wolbachia per cell robust z, rep 2 = 0.737; Wolbachia per cell robust z, rep 3 = 0.63. With knock-down of aus [DRSC15157], the record shows Wolbachia per cell robust z, rep 1 = -11.7 (active); Wolbachia per cell robust z, rep 2 = -7.67; Wolbachia per cell robust z, rep 3 = 0.0564. Against aus [DRSC26783], the values are Wolbachia per cell robust z, rep 1 = -0.718; Wolbachia per cell robust z, rep 2 = 0.806; Wolbachia per cell robust z, rep 3 = 0.387. Depletion of Wnt6 [DRSC02795] came out at: Wolbachia per cell robust z, rep 1 = -0.0223; Wolbachia per cell robust z, rep 2 = -0.195; Wolbachia per cell robust z, rep 3 = -1.07.

Depletion of Wnt6 [DRSC26973] resulted in: Wolbachia per cell robust z, rep 1 = -0.229; Wolbachia per cell robust z, rep 2 = 0.362; Wolbachia per cell robust z, rep 3 = -1.94. For Inx5 [DRSC20051] the deposit lists Wolbachia per cell robust z, rep 1 = -0.392; Wolbachia per cell robust z, rep 2 = -0.147; Wolbachia per cell robust z, rep 3 = 0.73. RpL37-1 [DRSC20149] scored Wolbachia per cell robust z, rep 1 = -0.57; Wolbachia per cell robust z, rep 2 = -0.111; Wolbachia per cell robust z, rep 3 = 0.865. With knock-down of RpL37-1 [DRSC21646] the results were Wolbachia per cell robust z, rep 1 = 0.349; Wolbachia per cell robust z, rep 2 = 1.2; Wolbachia per cell robust z, rep 3 = 0.205.

Hits (from the list above):
MAN1 [DRSC04342] — Wolbachia per cell robust z, rep 1 = -7.14 (active); Wolbachia per cell robust z, rep 2 = 0.19; Wolbachia per cell robust z, rep 3 = -5.26
aus [DRSC15157] — Wolbachia per cell robust z, rep 1 = -11.7 (active); Wolbachia per cell robust z, rep 2 = -7.67; Wolbachia per cell robust z, rep 3 = 0.0564

The listing continues:
Against ap [DRSC04917], the values are Wolbachia per cell robust z, rep 1 = -5.5 (active); Wolbachia per cell robust z, rep 2 = 0.794; Wolbachia per cell robust z, rep 3 = -2.26. Against MTF-1 [DRSC11217], the entry reads Wolbachia per cell robust z, rep 1 = 1.12; Wolbachia per cell robust z, rep 2 = 0.903; Wolbachia per cell robust z, rep 3 = -0.916. MTF-1 [DRSC21341] showed Wolbachia per cell robust z, rep 1 = 0.0984; Wolbachia per cell robust z, rep 2 = 0.762; Wolbachia per cell robust z, rep 3 = -0.976. After knock-down of SkpC [DRSC20375], the record shows Wolbachia per cell robust z, rep 1 = -1.28; Wolbachia per cell robust z, rep 2 = -3.34; Wolbachia per cell robust z, rep 3 = -1.2. Against SkpC [DRSC26926] the deposit lists Wolbachia per cell robust z, rep 1 = -1.84; Wolbachia per cell robust z, rep 2 = -6.09; Wolbachia per cell robust z, rep 3 = -1.07. After knock-down of CG12011 [DRSC08219], the record shows Wolbachia per cell robust z, rep 1 = -1.26; Wolbachia per cell robust z, rep 2 = -0.193; Wolbachia per cell robust z, rep 3 = -0.217.

Against CG12011 [DRSC27315], the entry reads Wolbachia per cell robust z, rep 1 = -0.517; Wolbachia per cell robust z, rep 2 = 0.71; Wolbachia per cell robust z, rep 3 = 0.172. Silencing of CG8768 [DRSC07259] gave: Wolbachia per cell robust z, rep 1 = -0.63; Wolbachia per cell robust z, rep 2 = 0.467; Wolbachia per cell robust z, rep 3 = 0.313.
